Experimental data: publication PMC10406941 (Scientific Reports, 2023)

System: SARS-CoV-2
Test: Anti-SARS-CoV-2 activity, detection of viral genomes by RT-qPCR on infected cells
[1] = Table 2, RT-qPCR of viral genomes, Vero E6 cells infected with SARS-CoV-2
[2] = Table 3, RT-qPCR of viral genomes, Vero E6 cells infected with SARS-CoV-2
[3] = read-out: IC50 (μM) SARS-CoV-2, Table 3, RT-qPCR of viral genomes, Vero E6 cells infected with SARS-CoV-2
[4] = read-out: IC50 value, anti-SARS-CoV-2 assay, Vero E6 cells

| Structure (SMILES) | IC50 (μM) SARS-CoV-2 [1] | IC50 (μM) SARS-CoV-2 [2] | other results |
| --- | --- | --- | --- |
| COc1ccc2c(CCCN3CCCC(C)(C)C3)cccc2c1 | – | – | IC50 (μM) SARS-CoV-2 (Table 4, RT-qPCR of viral genomes, Vero E6 cells infected with SARS-CoV-2): NOT ACTIVE; anti-SARS-CoV-2 activity in words (Vero E6 cells): did not demonstrate any antiviral effect |
| COc1cc2c(cc1OC)CN(CCCN1CCCc3c(OC)cccc31)CC2 | NOT ACTIVE | – | – |
| c1ccc([C@H]2CC[C@@H](CCCN3CCN(C4CCCCC4)CC3)CC2)cc1 (relative stereo) | – | NOT ACTIVE | – |
| c1ccc([C@H]2CC[C@H](CCCN3CCN(C4CCCCC4)CC3)CC2)cc1 (relative stereo) | – | NOT ACTIVE | – |
| COc1cc2c(cc1OC)CN(CCCN1CCc3cc(F)ccc3C1=O)CC2 | NOT ACTIVE | – | – |
| COc1cc2c(cc1OC)CN(CCCN1CCc3c(OC)cccc3C1=O)CC2 | NOT ACTIVE | – | – |
| O=C1c2ccccc2CCN1CCCN1CCN(C2CCCCC2)CC1 | – | NOT ACTIVE | – |
| COc1ccc([C@H]2CC[C@@H](CCCN3CCN(C4CCCCC4)CC3)CC2)cc1 (relative stereo) | – | – | IC50 [3]: 2.35 µM; IC50 [4]: 2 µM |
| COc1ccc([C@H]2CC[C@H](CCCN3CCN(C4CCCCC4)CC3)CC2)cc1 (relative stereo) | – | – | IC50 [3]: 2.31 µM; IC50 [4]: 2 µM |
| O=C1COc2cccnc2N1CCCN1CCN(C2CCCCC2)CC1 | – | NOT ACTIVE | – |
| C1CCC(CCCN2CCN(C3CCCCC3)CC2)CC1 | – | NOT ACTIVE | – |
| COc1cc2c(cc1OC)CN(CCCN1CCc3ccccc3C1=O)CC2 | NOT ACTIVE | – | – |

Read-outs that look alike come from different tables or passages of the source.
